Results of unrelated studies side by side (data: NIAID ChemDB).

Shared fields: growth or infection tests; species: Mycobacterium tuberculosis

An empty or dashed field is not shown. Lines come from different laboratories, so protocols vary. MIC bound: limit read from a one-dose screen. MIC50, MIC90 and the like: level of inhibition, or share of isolates inhibited. ECn is the concentration giving n% inhibition of infection, replication or growth. Inhibition is in % at the dose shown (toxicity tests: loss of growth or viability).

structure | mutations | endpoint | strain or isolate | method | tested at | result
CCCCCCCCO[C@H]1O[C@H](CO[C@H]2O[C@H](CN)[C@@H](O)[C@@H]2O)[C@@H](O)[C@@H]1O | - | MIC | H37Ra | - | - | >12.8 µg/mL
Nc1ccc(C(=O)O)c(O)c1 | - | MIC | H37Ra | - | - | 0.05 µg/mL
COc1cc(O)cc(CCCCC/C=C\CCCCCCCc2cc(O)c(C)c(O)c2)c1 | - | MIC | H37Rv | - | - | 25.6 µg/mL
N/C(=N\N=C\c1ccc([N+](=O)[O-])cc1)c1ccncc1 | - | MIC | 1481 | - | - | >256 µg/mL
CC1(c2nc3cc(Cl)c(Cl)cc3[nH]2)CCC(CO)C(C)(C)O1 | - | MIC bound | H37Rv | resazurin | - | >6.25 µg/mL
O=C(N/N=C/c1ccc(Cl)cc1Cl)c1ccncc1 | - | MIC | - | - | - | 0.1 µg/mL
COC1=CC(=O)c2nc3ccccc3c3ccnc1c23 | - | MIC | H37Rv | - | - | 1.5 µM
C/C=C/C=N/N(c1nnc(-c2ccccc2)c(-c2ccccc2)n1)S(=O)(=O)c1ccc(C)cc1 | - | inhibition | H37Rv | BACTEC | 12.5 µg/mL | 99%
O=C(Nc1nc(-c2ccccc2)cs1)c1cc(-c2ccccc2)nc2ccccc12 | - | MIC | H37Rv | fluorescence | - | >6.25 µg/mL
O=[N+]([O-])c1cccc(/C=N/Nc2ccc3ccccc3n2)c1O | - | MIC | H37Ra | - | - | 3.125 µM
CCCCCc1cc(O)cc(OC)c1 | - | MIC | H37Rv | - | - | 60 µg/mL
COc1cc(C(O)(CCN(C)C)C(c2cc(-c3ccccc3Cl)cnc2OC)c2cccc(OC)c2F)cc(OC)n1 | - | EC90 | H37Rv | fluorescence | - | 9.8 µM
OCC1=C[C@@H](O)[C@@H]2C=CO[C@@H](O[C@@H]3O[C@H](CO)[C@@H](O)[C@H](O)[C@H]3O)[C@H]12 | - | MIC | H37Rv | BACTEC | - | ≥12.5 µg/mL
O=C(O)c1cc(/C=C\c2ccc([N+](=O)[O-])s2)nc2ccccc12 | - | MIC | H37Rv | fluorescence | - | 3.125 µg/mL
Cc1ncc([N+](=O)[O-])n1Cc1nncs1 | - | inhibition | H37Rv | resazurin | 6.25 µg/mL | 11%
COc1cc(C(O)(CCN(C)C)C(c2cc(-c3ccccn3)cnc2OC)c2cccc(OC)c2F)cc(OC)n1 | - | EC90 | H37Rv | fluorescence | - | 22.55 µM
CCCN1CCN(c2cc(=O)c3nc4c(oc3c2)c2c(=O)c3c(O)c(C)c5c(c34)=C(O)[C@@](C)(O/C=C/[C@H](OC)[C@@H](C)[C@@H](OC(C)=O)[C@H](C)[C@H](O)[C@H](C)[C@@H](O)[C@@H](C)/C=C/C=C(/C)C(=O)N2)O5)CC1 | - | MIC50 | 16 strains (rifampicin-susceptible) | - | - | ≤0.0125 µg/mL
CC(=O)N1CC(C)(C)c2c(C)c(O)c(C)c(C)c21 | - | MIC bound | H37Rv | resazurin | - | >6.25 µg/mL
COC(=O)C1=C2Nc3ccccc3[C@@]23CCN2C3[C@]3(CCO[C@H]3[C@@]3(CC4C[C@]56CC(=O)O[C@H]5CCN5CC[C@H](C4N(c4ccccc4OC)C3)C56)[C@H]2O)C1 | - | MIC90 | H37Rv | resazurin | - | 4 µg/mL
Cc1cc(O)c2c(c1)C(=O)C=CC2=O | - | MIC | DP481/01 (isoniazid rifampicin-resistant) | - | - | 1.25 µg/mL
O=C1OC2CCCCC1CC2 | - | inhibition | H37Rv | BACTEC | 12.5 µg/mL | 5%
COC(=O)C1=C2Nc3ccccc3[C@@]23CCN2C[C@]4(CC5C[C@]67CC(=O)O[C@H]6CCN6CC[C@H](C5N(c5ccccc5OC)C4)C67)[C@@H]4OCC[C@]4(C1)C23 | - | MIC90 | H37Rv | resazurin | - | >100 µg/mL
Cc1c(OCC(F)(F)F)ccnc1CSc1nc2ccccc2[nH]1 | - | MIC90 | HN878 | resazurin | - | 1.74 µM
CCCCCCCC/C=C\CCCCCCCc1cc(O)cc(O)c1 | - | MIC | H37Rv | - | - | 20.8 µg/mL
O=C(NCCNC1=CC(=O)c2nc3ccccc3c3ccnc1c23)c1cnccn1 | - | MIC | H37Rv | - | - | 2 µM
Cn1c2ccccc2c2nnc(N/N=C/c3ccncc3)nc21 | - | inhibition | H37Rv | resazurin | 6.25 µg/mL | 47%
CCCCCCCCO[C@H]1O[C@H](CO[C@H]2O[C@H](CN=[N+]=[N-])[C@@H](O)[C@@H]2O)[C@@H](O)[C@@H]1O | - | MIC | H37Ra | - | - | >12.8 µg/mL
COc1c(O)c2c(c(C)c1C(=O)C=C(C)C)Oc1c(C=O)c(O)cc(C)c1C(=O)O2 | - | MIC | - | - | - | 49.9 µg/mL
N/C(=N\N=C\c1ccccc1)c1ccncc1 | - | MIC | 1481 | - | - | 32 µg/mL
CC1N(C)CCC1(C)CN1c2ccccc2Sc2ccccc21.Cl | - | MIC bound | H37Rv | BACTEC | - | ≤12.5 µg/mL
Cc1ccc(NC(=O)c2cc(-c3ccc([N+](=O)[O-])s3)nc3ccc(C)cc23)cc1 | - | MIC | H37Rv | fluorescence | - | >6.25 µg/mL
COC(=O)c1cc2c(s1)-c1nccc3c1c(nc1ccccc13)C2=O | - | MIC | H37Rv | - | - | 0.58 µM
Nc1ccc(C(=O)O)c(O)c1 | - | MIC | Clinical isolate 1 | - | - | 2 µg/mL
Cc1ccc(/C=N/N=C(\N)c2ccncc2)cc1 | - | MIC | 1342 | - | - | 16 µg/mL
CO[C@H]1/C=C/O[C@@]2(C)Oc3c(C)c(O)c4c(O)c(c(/C=N/N5CCN(C)CC5)c(O)c4c3C2=O)NC(=O)/C(C)=C\C=C\[C@H](C)[C@H](O)[C@@H](C)[C@@H](O)[C@@H](C)[C@H](OC(C)=O)[C@@H]1C | - | MIC | Clinical isolate 6 | - | - | 0.1 µg/mL
Nc1cc(O)c(C(=O)O)cc1F | Isoniazid-resistant | MIC90 | H37Rv | resazurin | - | 2.5 µg/mL
C/C(=N\Nc1ccc2ccccc2n1)c1ccccc1O | - | MIC | H37Ra | - | - | 1.56 µM
Cc1ccc(C)c(/C=N/N=C(\N)c2ccncc2)c1 | - | MIC | 1342 | - | - | 128 µg/mL
NNC(=O)c1ccccn1 | - | MIC | - | - | - | 10 µg/mL
CCCCCCCCO[C@H]1O[C@H](CO[C@H]2O[C@H](CNS(=O)(=O)CC)[C@@H](O)[C@@H]2O)[C@@H](O)[C@@H]1O | - | MIC | H37Ra | - | - | >12.8 µg/mL
NC1CCN(c2c(F)cc3c(=O)c(C(=O)O)cn(C4CC4)c3c2Cl)C1 | - | MIC90 | 60 strains | - | - | 2 µg/mL
O=C(OCCNC1=CC(=O)c2nc3ccccc3c3ccnc1c23)c1cnccn1 | - | MIC | H37Rv | - | - | 2 µM
COc1ccc(OC)c(/C=N/N=C(\N)c2ccncc2)c1 | - | MIC | 1054 | - | - | 256 µg/mL
c1cc2c3c(cccc3c1)N1C(=N2)Sc2nc3ccccc3nc21 | - | MIC bound | H37Rv | - | - | >6.25 µg/mL
COc1cc(C(O)(CCN(C)C)C(c2cc(-c3ccc(F)cc3)cnc2OC)c2cccc(OC)c2F)cc(OC)n1 | - | EC90 | H37Rv | fluorescence | - | 4.56 µM
CCCCNC(=S)SSSSC(=S)NCCCC | - | inhibition | H37Rv | resazurin | 6.25 µg/mL | 99%
Cc1ccc(SC2=CC(=O)c3nc4ccccc4c(C)c3C2=O)cc1 | - | MIC | H37Rv | - | - | 9 µM
CO[C@@]12[C@H](COC(N)=O)C3=C(C(=O)C(C)=C(N)C3=O)N1C[C@H]1[C@@H]2N1C | - | MIC | PZA-R | - | - | <0.1 µg/mL
CC1(C)CCC(NC(=O)c2cc3c(C#N)ccnc3[nH]2)CC1 | - | MIC90 | H37Rv | resazurin | - | 0.017 µg/mL
COc1cc(C(O)(CCN(C)C)C(c2cc(-c3ccccc3C)cnc2OC)c2cccc(OC)c2F)cc(OC)n1 | - | EC90 | H37Rv | fluorescence | - | 9.96 µM
NNC(=O)c1ccncc1 | - | MIC | Clinical isolate 7 | - | - | 2 µg/mL
COc1cc(C(O)(CCN(C)C)C(c2cc(-c3cccc(C#N)c3)cnc2OC)c2cccc(OC)c2F)cc(OC)n1 | - | EC90 | H37Rv | fluorescence | - | 6.19 µM
CCCCCCCCO[C@H]1O[C@H](CO[C@H]2O[C@H](CNS(=O)(=O)c3ccc(C)cc3)[C@@H](O[Si](C)(C)C(C)(C)C)[C@@H]2O[Si](C)(C)C(C)(C)C)[C@@H](O[Si](C)(C)C(C)(C)C)[C@@H]1O[Si](C)(C)C(C)(C)C | - | MIC | H37Ra | - | - | >12.8 µg/mL
COc1cc(C(O)(CCN(C)C)C(c2cc(-c3cccc(C)c3)cnc2OC)c2cccc(OC)c2F)cc(OC)n1 | - | EC90 | H37Rv | fluorescence | - | 7.86 µM
COC(=O)N[C@H]1[C@@H](C)O[C@@H](O[C@H]2C/C=C(\C)C3C=CC4C([C@@H](C)C[C@H](O[C@@H]5C[C@H](C)[C@H](O)[C@@](O)(C6C[C@@H](O)[C@H](O[C@H]7CC[C@@H](OC)[C@H](C)O7)[C@H](C)O6)C5)[C@@H]4O)[C@]3(C)C(O)=C3C(=O)OC4(CC(C=C(CO)[C@@H]4C)/C=C/2C)C3=O)C[C@]1(C)[N+](=O)[O-] | - | MIC | H37Ra | - | - | 3.125 µM
O=C1C=C(NCCNC(=S)Nc2ccccc2)c2nccc3c2c1nc1ccccc13 | - | MIC | H37Rv | - | - | 3.7 µM
CCC(C)N1CCN(c2cc(=O)c3nc4c(oc3c2)c2c(=O)c3c(O)c(C)c5c(c34)=C(O)[C@@](C)(O/C=C/[C@H](OC)[C@@H](C)[C@@H](OC(C)=O)[C@H](C)[C@H](O)[C@H](C)[C@@H](O)[C@@H](C)/C=C/C=C(/C)C(=O)N2)O5)CC1 | - | MIC50 | 16 strains (rifampicin-susceptible) | - | - | 0.025 µg/mL
O=C(O)c1cc(/C=C\c2ccc(-c3ccc([N+](=O)[O-])s3)s2)nc2ccccc12 | - | MIC | H37Rv | fluorescence | - | 6.25 µg/mL
Cc1cc(N)c2ccccc2[n+]1CCCCCCCCCC[n+]1c(C)cc(N)c2ccccc21 | - | MIC | H37Ra | - | - | 6.25 µM
CC12CCC(=O)c3coc(c31)C(=O)c1cc3c(cc12)C(=O)C=CC3=O | - | MIC bound | H37Rv | BACTEC | - | >12.5 µg/mL
COc1cc(Cc2cnc(N)nc2N)cc(OC)c1OC | - | MIC | H37Ra | - | - | 256 µg/mL
CCC1OC(=O)CC(O)C(C)C(OC2OC(C)CC(N(C)C)C2O)C(CC=O)CC(C)C(=O)/C=C\C2(C)OC2C1C | - | inhibition | H37Rv | BACTEC | 12.5 µg/mL | 7%
Cc1ccc(NC(=O)c2cc(/C=C/c3ccc(-c4cccs4)s3)nc3ccc(C)cc23)cc1 | - | MIC | H37Rv | fluorescence | - | >6.25 µg/mL
C/C(=N\NS(=O)(=O)c1ccc(C)cc1)C(CN(C)C)C(c1ccccc1)c1c(O)c2ccccc2oc1=O.Cl | - | inhibition | H37Rv | BACTEC | 12.5 µg/mL | 6%
Cc1cc(C(=O)NN)c2ccccc2n1 | - | MIC | - | - | - | 10 µg/mL
CCOC(=O)Nc1ccc(C2OCCS2)cc1 | - | MIC bound | H37Rv | BACTEC | - | >12.5 µg/mL
CN(C)c1ccc(/C=N/NC(=O)c2ccncc2)cc1 | - | MIC | - | - | - | 1 µg/mL
Cc1c2cc[n+](CCN3CCCCC3)cc2c(C)c2c1[nH]c1ccc(O)cc12 | - | MIC | H37Ra | - | - | 6.25 µM
O=C1C=C(Sc2ccccc2)c2nccc3c2c1nc1ccccc13 | - | MIC | H37Rv | - | - | 18.4 µM
O=C(Nc1ccccc1)c1cc(-c2ccccc2)nc2ccccc12 | - | MIC | H37Rv | fluorescence | - | >6.25 µg/mL
C=C(C)[C@@H]1CC[C@]2(CO)CC[C@]3(C)[C@H](CC[C@@H]4[C@@]5(C)CC[C@H](O)C(C)(C)[C@@H]5CC[C@]43C)[C@@H]12 | - | MIC | H37Rv | - | - | >128 µg/mL
COc1cc(/C=N/NC(=O)C2CCNCC2)ccc1O | - | MIC | - | - | - | >40 µg/mL
Cc1cc2cc3c4c(nn5nnnc5c4c2o1)-c1ccccc1CC3 | - | MIC bound | H37Rv | BACTEC | - | >12.5 µg/mL
COC(=O)c1c(C)ccc2c(O)c3c(cc12)C(=O)c1c2c(cc(O)c1C3=O)C1(C)OC(C)(O2)C(O)C(N(C)C)C1O | - | MIC | H37Ra | - | - | 12.5 µM
COc1ccc(CCNC(=O)C(Sc2ccccn2)c2ccccc2)cc1OC | - | MIC bound | H37Rv | BACTEC | - | >12.5 µg/mL
C=C(C)CC[C@H]1CN(c2ccn(N3CCOCC3)c2)C(=O)O1 | - | MIC90 | ATCC 35837 (ethambutol-resistant) | - | - | >100 µM
CN(C)c1ccc(/C=N/NC(=O)CCCCC(=O)N/N=C/c2ccc(N(C)C)cc2)cc1 | - | inhibition | H37Rv | BACTEC | 12.5 µg/mL | 0%
N/C(=N\N=C\c1ccc(Cl)cc1)c1ccncc1 | - | MIC | 1481 | - | - | 64 µg/mL
C=CC1=C(C)C2=NC1=CC1=NC(=C(CC)/C1=C\O)C=C1N=C3C(=C1C)C(=O)[C@H](C(=O)OC)C3=C1NC(=C2)[C@@H](C)[C@@H]1CCC(=O)O | - | inhibition | H37Rv | resazurin | 6.25 µg/mL | 5%
N/C(=N\N=C\c1cccc(Br)c1)c1ccncc1 | - | MIC | 1342 | - | - | 64 µg/mL
NC(=O)c1cc(NC(=O)c2ccc(C(=O)Nc3cc(C(N)=O)cc(C4=NCCN4)c3)cc2)cc(C2=NCCN2)c1 | - | MIC bound | H37Rv | resazurin | - | >6.25 µg/mL
NNC(=O)c1ccc2ncccc2c1 | - | MIC | - | - | - | >40 µg/mL